Reference: PubChem BioAssay AID624099 (ICCB-Longwood, 2012)
The deposit covers about 21,000 reagents; shown is an unselected part. 497 of them (2.4%) count as active. 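Higher z means weaker E2 silencing; only reporter increases were scored, and knock-downs that hurt cell survival may mask genuine repressor factors.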 The numbers tell different reagents against one gene apart.

Screen: 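Host factors E2 relies on to silence an HPV18 LCR reporter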 (primary screen)
Cells: human C33A cervical carcinoma cells (HPV-negative) stably expressing BPV1 E2 and an HPV18 LCR luciferase reporter
Reagent: siRNA pool against human genes, 40 nM
Timing: 72 h
Measurement: 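Per-well luciferase luminescence, z-scored on each plate against the plate mean and SD with control wells left out, then averaged across three replicate plates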
Reading the numbers: mean z-score and z-score: higher = stronger reporter signal, weaker E2 silencing
Hit rule: 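Hit if mean z-score reaches 2 and two or more of three replicate z-scores also reach 2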

no.	gene	pool no.	mean z-score	z-score, replicate A	z-score, replicate B	z-score, replicate C	call
1	PDK1 (pyruvate dehydrogenase kinase 1)	1	0.91	0.97	0.55	1.22	inactive
2	MRPL2 (mitochondrial ribosomal protein L2)	1	1.31	1.42	1.18	1.32	inactive
3	CFAP20DC (CFAP20 domain containing)	1	-0.42	-0.44	-0.45	-0.37	inactive
4	NGDN (neuroguidin)	1	-1.54	-1.64	-1.61	-1.37	inactive
5	OPN3 (opsin 3)	1	-0.07	-0.13	0.04	-0.12	inactive
6	TNNT1 (troponin T1, slow skeletal type)	1	-0.6	-0.41	-0.86	-0.53	inactive
7	ZNF320 (zinc finger protein 320)	1	-0.41	-0.43	-0.31	-0.5	inactive
8	OR2B3 (olfactory receptor family 2 subfamily B member 3)	1	0.33	0.52	0.34	0.15	inactive
9	DDX4 (DEAD-box helicase 4)	1	-0.26	-0.46	-0.34	0.01	inactive
10	CACNB2 (calcium voltage-gated channel auxiliary subunit beta 2)	1	0.11	-0.11	0.32	0.13	inactive
11	PPP1R12B (protein phosphatase 1 regulatory subunit 12B)	1	-1.01	-0.88	-1.21	-0.93	inactive
12	SYBU (syntabulin)	1	0	0.02	0.05	-0.06	inactive
13	H2AC16 (H2A clustered histone 16)	1	-0.27	-0.02	-0.5	-0.27	inactive
14	ZNF280B (zinc finger protein 280B)	1	1.17	0.8	1.35	1.35	inactive
15	TEX13B (testis expressed 13B)	1	0.53	0.32	0.98	0.31	inactive
16	LY6G5C (lymphocyte antigen 6 family member G5C)	1	-0.7	-0.98	-0.63	-0.48	inactive
17	GPATCH2L (G-patch domain containing 2 like)	1	-0.65	-0.67	-0.75	-0.51	inactive
18	KIF26B (kinesin family member 26B)	1	-0.29	0.05	0.3	-1.22	inactive
19	KIF26B (kinesin family member 26B)	2	1.17	1.09	1.15	1.28	inactive
20	TOMM22P5 (TOMM22 pseudogene 5)	1	-0.2	-0.08	-0.25	-0.25	inactive
21	URM1 (ubiquitin related modifier 1)	1	0.34	0.18	0.41	0.43	inactive
22	LOC388635 (retired record)	1	0.69	0.79	0.84	0.43	inactive
23	LINC00272 (long independently transcribed non-coding RNA 272)	1	0.29	-0.03	0.37	0.53	inactive
